PMC12133307, “Structure, kinetics, and mechanism of Pseudomonas putida sulfoquinovose dehydrogenase, the first enzyme in the sulfoglycolytic Entner-Doudoroff pathway” (Biochemical Journal, 2025)

Test system: NC(=O)c1ccc[n+]([C@@H]2O[C@H](COP(=O)(O)OP(=O)(O)OC[C@H]3O[C@@H](n4cnc5c(N)ncnc54)[C@H](O)[C@@H]3O)[C@@H](O)[C@H]2O)c1
Assay: purified protein
Settings: 5.0 mM SQ, 50 mM tricine pH 8.5, 150 mM NaCl, binary crystal complex by co-crystallization, varied: cofactor

Substance: PpSQDH (P. putida SQ dehydrogenase; PpSQ1_00090) (Pseudomonas putida)
- Km: 120 ± 50 µM
- kcat: 58 s⁻¹
- kcat/Km: 500000 M⁻¹ s⁻¹
